Experiments:
[1] = test system: strains harboring beta-lactamases together with other mechanisms of resistance; test: Cephalosporin lysis test vs CLSI disk diffusion (Example 12); type: cell-based, Enterobacteriaceae; details: 500 μg/ml final, FIG. 22
[2] = test system: lab strains spiked into urine and BAL samples; test: Lysis test in spiked urine and bronchoalveolar lavage samples vs disk diffusion (Example 11); type: cell-based; details: simulated urines and BALs, FIGS. 17A and 17B
[3] = test system: Enterobacteriaceae strains with Class A beta-lactamases; test: Cephalosporin lysis test vs CLSI disk diffusion (Example 12); type: cell-based; details: 500 μg/ml final, one hour, FIG. 18
[4] = test system: strains harboring plasmid encoded Class C beta-lactamases; test: as above; type: cell-based, Enterobacteriaceae; details: 500 μg/ml final, one hour, FIG. 20
[5] = test system: class C beta-lactamase Enterobacteriaceae; test: Lysis test on simulated blood cultures vs CLSI disk diffusion (Example 8); type: cell-based; details: class C beta-lactamases; 6.67 μg/mL final, 60 minutes; FIG. 14
[6] = test system: class A beta-lactamase Enterobacteriaceae; test: Lysis test on simulated blood cultures vs CLSI disk diffusion (Example 6); type: cell-based; details: class A beta-lactamase strains; 6.67 μg/mL final, 60 minutes; FIG. 12
[7] = test system: class B beta-lactamase Enterobacteriaceae; test: Lysis test on simulated blood cultures vs CLSI disk diffusion (Example 7); type: cell-based; details: Class B beta-lactamases; zinc sulfate added; 6.67 μg/mL final, 60 minutes; FIG. 13
[8] = test system: class D beta-lactamase Enterobacteriaceae; test: Lysis test on simulated blood cultures vs CLSI disk diffusion (Example 9); type: cell-based; details: Class D beta-lactamases; 6.67 μg/mL final, 60 minutes; FIG. 15
Description: In this example, isolates tested include strains with and without carbapenemases. From fresh blood agar plates, three colonies per strain were used to inoculate blood culture media containing human blood and grown overnight at 37° C. with shaking, producing a simulated blood culture. Cultures were then diluted 1:10 into broth medium and grown for an additional hour at 37° C. with shaking. For each strain, four 250 μL aliquots were added into four separate 2 mL Eppendorf microcentrifuge tubes. […] Tubes were vortexed to resuspend the pellet completely, and then OD600 measurement was taken and the percent change, or percent lysis, between the control and antibiotic tubes was calculated (percent change=[control OD−antibiotic OD]/control OD). Results were then compared to the susceptibility of the strains, determined using the Clinical and Laboratory Standards Institute (CLSI) methods for disk diffusion. […]
Of note, if a strain was determined to be intermediate to a drug by the disk diffusion method using CLSI breakpoints, it was expected to correlate to the resistant answer by the method of the invention. […] With this consideration, it is preferable that intermediate strains are conservatively scored as resistant to prevent possible treatment failure. […]

[9] = cephalosporins, 500 μg/mL final

Row | Compound | agreement between this assay and the disk diffusion test [1] [%] | concordance with the disc diffusion method [2, 9] [%] | agreement with disk diffusion results [3] [%] | agreement with disk diffusion results [4] [%] | concordance with disk diffusion [5] [%] | concordance between the tested method and the disk diffusion results [6] [%] | concordance with the disc diffusion method ([2]; carbapenems, 6.67 μg/mL final) [%] | concordance with disk diffusion [7] [%] | concordance with disk diffusion [8] [%]
1 | CO/N=C(\C(=O)N[C@@H]1C(=O)N2C(C(=O)O)=C(COC(C)=O)CS[C@H]12)c1csc(N)n1 [cefotaxime] | 75 | 93 | 93 | 67 | – | – | – | – | –
2 | CC(C)(O/N=C(\C(=O)N[C@@H]1C(=O)N2C(C(=O)[O-])=C(C[n+]3ccccc3)CS[C@H]12)c1csc(N)n1)C(=O)O [ceftazidime] | 75 | 96 | 87 | 83 | – | – | – | – | –
3 | C[C@@H](O)[C@H]1C(=O)N2C(C(=O)O)=C(S[C@@H]3CN[C@H](C(=O)Nc4cccc(C(=O)O)c4)C3)[C@H](C)[C@H]12 [ertapenem] | – | – | – | – | 67 | 100 | 100 | 57 | 83
4 | C[C@@H](O)[C@H]1C(=O)N2C(C(=O)O)=C(S[C@@H]3CN[C@H](C(=O)N(C)C)C3)[C@H](C)[C@H]12 [meropenem] | – | – | – | – | 100 | 93 | 82 | 100 | 67

Source: patent US20160281125A1, “ANTIMICROBIAL COMPOUND SUSCEPTIBILITY TEST” (priority 2013, published 2016)
